Publication PMC8097418, “In Vitro and In Vivo Antibacterial Activities of a Novel Quinolone Compound, OPS-2071, against Clostridioides difficile” (Antimicrobial Agents and Chemotherapy, 2021)

Tested on: hypervirulent and nonhypervirulent strains of C. difficile (62 strains)
Assay: MIC distribution against 20 hypervirulent and 42 nonhypervirulent strains
Type: cell-based, Clostridioides difficile
Details: Wilcoxon rank sum test

Structure (SMILES)	difference in susceptibility between hypervirulent and nonhypervirulent strains
CCc1c(Cl)c(O)c(Cl)c(O)c1C(=O)O[C@H]1[C@H](O)[C@H](OC)[C@H](OC/C2=C\C=C\C[C@H](O)/C(C)=C/[C@H](CC)[C@@H](O[C@@H]3OC(C)(C)[C@@H](OC(=O)C(C)C)[C@H](O)[C@@H]3O)/C(C)=C/C(C)=C/C[C@@H]([C@@H](C)O)OC2=O)O[C@@H]1C [Fidaxomicin]	significant differences
Cc1c(-c2cnc(N)c(C#N)c2)c(F)cc2c(=O)c(C(=O)O)cn(C3CC3)c12 [OPS-2071, 7-(6-amino-5-cyanopyridin-3-yl)-1-cyclopropyl-6-fluoro-8-methyl-4-oxo-1,4-dihydroquinoline-3-carboxylic acid]	no significant difference
Cc1ncc([N+](=O)[O-])n1CCO [Metronidazole]	significant differences
CN[C@H](CC(C)C)C(=O)N[C@H]1C(=O)N[C@@H](CC(N)=O)C(=O)N[C@H]2C(=O)N[C@H]3C(=O)N[C@H](C(=O)N[C@H](C(=O)O)c4cc(O)cc(O)c4-c4cc3ccc4O)[C@H](O)c3ccc(c(Cl)c3)Oc3cc2cc(c3O[C@@H]2O[C@H](CO)[C@@H](O)[C@H](O)[C@H]2O[C@H]2C[C@](C)(N)[C@H](O)[C@H](C)O2)Oc2ccc(cc2Cl)[C@H]1O [Vancomycin]	no significant difference
